Test results taken from patent publication CN114395035A.

Assays:
[1] = molecular target: T1, SARS-CoV-2 Prototype RBD蛋白 (野生型新型冠状病毒刺突蛋白受体结合域段RBD蛋白) (SARS-CoV-2); conditions: remark: other sources report otherwise
[2] = molecular target: T1, SARS-CoV-2 Prototype RBD蛋白 …; assay: SPR (Biacore 8K); conditions: remark: other sources report otherwise

B1: IMCAS-72抗体 (全抗IgG1) (antibody)
heavy: DQVQLVESGGGLVQPGGSLRLSCAASGFTFSSYGMHWVRQAPGKGLEWVAVISYDGSDKYYADSVKGRFTISRDNSKNTLYLQMNSLRAEDTAVYYCARDRDRFGDQGGWFDPWGQGTLVTVSSASTKGPSVFPLAPSSKSTSGGTAALGCLVKDYFPEPVTVSWNSGALTSGVHTFPAVLQSSGLYSLSSVVTVPSSSLGTQTYICNVNHKPSNTKVDKRV[sequence of human IgG1 Fc omitted]
light: [sequence of about 100 residues omitted][sequence of about 100 residues omitted]
Binder B1 has a 最低检测限 [1] of 4 ng/mL and a Kd [2] of 0.39 nM.
